The results in this text go back to paper PMC6025358 (Marine Drugs, 2018).

Amino acid sequences for entries named in this document (tags omitted). Residues count along the entry.
UniProt P04757, 26-499 limits assumed: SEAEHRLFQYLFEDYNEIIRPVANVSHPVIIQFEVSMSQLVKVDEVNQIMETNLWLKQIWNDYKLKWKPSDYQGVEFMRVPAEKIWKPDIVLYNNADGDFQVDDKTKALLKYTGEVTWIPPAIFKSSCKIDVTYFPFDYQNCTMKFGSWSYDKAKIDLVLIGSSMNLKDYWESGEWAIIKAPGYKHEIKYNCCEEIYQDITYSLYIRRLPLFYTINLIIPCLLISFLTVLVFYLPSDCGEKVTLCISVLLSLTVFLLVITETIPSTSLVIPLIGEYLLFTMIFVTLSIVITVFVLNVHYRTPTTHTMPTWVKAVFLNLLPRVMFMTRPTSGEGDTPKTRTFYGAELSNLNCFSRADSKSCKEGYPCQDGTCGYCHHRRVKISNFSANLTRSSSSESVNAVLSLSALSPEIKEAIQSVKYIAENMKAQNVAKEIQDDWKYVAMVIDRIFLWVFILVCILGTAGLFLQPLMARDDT
UniProt P12392, 21-495 limits assumed: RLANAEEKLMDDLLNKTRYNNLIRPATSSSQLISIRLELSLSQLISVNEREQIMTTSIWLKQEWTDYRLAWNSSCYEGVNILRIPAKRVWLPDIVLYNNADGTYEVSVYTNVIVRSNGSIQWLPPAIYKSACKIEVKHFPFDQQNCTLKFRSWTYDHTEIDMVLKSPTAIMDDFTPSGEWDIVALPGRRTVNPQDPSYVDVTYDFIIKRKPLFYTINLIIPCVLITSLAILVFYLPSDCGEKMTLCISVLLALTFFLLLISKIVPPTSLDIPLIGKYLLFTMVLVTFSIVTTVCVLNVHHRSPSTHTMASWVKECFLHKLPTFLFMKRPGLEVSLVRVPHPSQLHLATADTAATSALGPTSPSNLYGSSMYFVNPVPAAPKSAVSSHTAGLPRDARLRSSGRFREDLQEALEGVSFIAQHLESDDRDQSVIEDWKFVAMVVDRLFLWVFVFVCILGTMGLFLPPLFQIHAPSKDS

pIC50: −log10 of the molar value.

In the test the target is rat α3β4 nAChR (Rattus norvegicus, UniProt P04757+P12392). The following applies: rat α3β4 nAChR in Xenopus oocytes; for Inhibition of ACh-evoked α3β4 nAChR-mediated current: peptide at 1 μM, mean, n = 3–6; for pIC50: read-out: α3β4 nAChR, IC50, two-electrode voltage clamp at −70 mV, 100 μM ACh 1-s pulses, 5 min toxin incubation, 95% confidence interval in parentheses, 3 to 8 oocytes.

As for `CC[C@H](C)[C@@H]1NC(=O)[C@H](C)NC(=O)[C@H](CO)NC(=O)[C@@H]2CSSC[C@H](NC(=O)CN)C(=O)N[C@@H](CSSC[C@@H](C(N)=O)NC(=O)[C@H]([C@@H](C)CC)NC(=O)[C@@H]3CCCN3C(=O)[C@H](CO)NC1=O)C(=O)N[C@@H](CO)C(=O)N[C@@H](Cc1c[nH]cn1)C(=O)N1CCC[C@H]1C(=O)N[C@@H](C(C)C)C(=O)N2`, the “Inhibition of ACh-evoked α3β4 nAChR-mediated current” value (“Inhibition” below) is above 80% and the pIC50 is 7.16.

Take `CC[C@H](C)[C@@H]1NC(=O)[C@@H]2CCCN2C(=O)[C@H](CO)NC(=O)[C@H](C(C)C)NC(=O)[C@H](C)NC(=O)[C@H](CO)NC(=O)[C@@H]2CSSC[C@H](NC(=O)CN)C(=O)N[C@@H](CSSC[C@@H](C(N)=O)NC1=O)C(=O)N[C@@H](CO)C(=O)N[C@@H](Cc1c[nH]cn1)C(=O)N1CCC[C@H]1C(=O)N[C@@H](C(C)C)C(=O)N2`: the pIC50 was 6.01.

Turning to `CC[C@H](C)[C@@H]1NC(=O)[C@@H]2CCCN2C(=O)[C@H](CO)NC(=O)[C@H](C)NC(=O)[C@H](C)NC(=O)[C@H](CO)NC(=O)[C@@H]2CSSC[C@H](NC(=O)CN)C(=O)N[C@@H](CSSC[C@@H](C(N)=O)NC1=O)C(=O)N[C@@H](CO)C(=O)N[C@@H](Cc1cnc[nH]1)C(=O)N1CCC[C@H]1C(=O)N[C@@H](C(C)C)C(=O)N2`, the pIC50 is below 5.00.

In the case of `CC[C@H](C)[C@@H]1NC(=O)[C@@H]2CCCN2C(=O)[C@H](CO)NC(=O)[C@H](CCC(N)=O)NC(=O)[C@H](C)NC(=O)[C@H](CO)NC(=O)[C@@H]2CSSC[C@H](NC(=O)CN)C(=O)N[C@@H](CSSC[C@@H](C(N)=O)NC1=O)C(=O)N[C@@H](CO)C(=O)N[C@@H](Cc1c[nH]cn1)C(=O)N1CCC[C@H]1C(=O)N[C@@H](C(C)C)C(=O)N2`, the “Inhibition” value was “nearly no inhibition” and the negative logarithm of the IC50 (pIC50) was below 5.00.

Consider `CC[C@H](C)[C@@H]1NC(=O)[C@@H]2CCCN2C(=O)[C@H](CO)NC(=O)[C@H](CC(C)C)NC(=O)[C@H](C)NC(=O)[C@H](CO)NC(=O)[C@@H]2CSSC[C@H](NC(=O)CN)C(=O)N[C@@H](CSSC[C@@H](C(N)=O)NC1=O)C(=O)N[C@@H](CO)C(=O)N[C@@H](Cc1c[nH]cn1)C(=O)N1CCC[C@H]1C(=O)N[C@@H](C(C)C)C(=O)N2`, for which the “Inhibition” value is listed as above 80% and the pIC50 is 6.59.

With `CC[C@H](C)[C@@H]1NC(=O)[C@@H]2CCCN2C(=O)[C@H](CO)NC(=O)[C@H](CCC(=O)O)NC(=O)[C@H](C)NC(=O)[C@H](CO)NC(=O)[C@@H]2CSSC[C@H](NC(=O)CN)C(=O)N[C@@H](CSSC[C@@H](C(N)=O)NC1=O)C(=O)N[C@@H](CO)C(=O)N[C@@H](Cc1c[nH]cn1)C(=O)N1CCC[C@H]1C(=O)N[C@@H](C(C)C)C(=O)N2`, the “Inhibition” value is given as “nearly no inhibition” and the pIC50 was below 5.00.

With `CC[C@H](C)[C@@H]1NC(=O)[C@@H]2CCCN2C(=O)[C@H](CO)NC(=O)[C@H](CCCNC(=N)N)NC(=O)[C@H](C)NC(=O)[C@H](CO)NC(=O)[C@@H]2CSSC[C@H](NC(=O)CN)C(=O)N[C@@H](CSSC[C@@H](C(N)=O)NC1=O)C(=O)N[C@@H](CO)C(=O)N[C@@H](Cc1c[nH]cn1)C(=O)N1CCC[C@H]1C(=O)N[C@@H](C(C)C)C(=O)N2`, the “Inhibition” value is listed as “nearly no inhibition” and the pIC50 is below 5.00.

In the case of `CC[C@H](C)[C@@H]1NC(=O)[C@@H]2CCCN2C(=O)[C@H](CO)NC(=O)[C@H](C)NC(=O)[C@H](C)NC(=O)[C@H](CO)NC(=O)[C@@H]2CSSC[C@H](NC(=O)CN)C(=O)N[C@@H](CSSC[C@@H](C(N)=O)NC1=O)C(=O)N[C@@H](CO)C(=O)N[C@@H](Cc1c[nH]cn1)C(=O)N1CCC[C@H]1C(=O)N[C@@H](C(C)C)C(=O)N2`, the “Inhibition” value is given as “nearly no inhibition”.

Regarding `CC[C@H](C)[C@@H]1NC(=O)[C@@H]2CCCN2C(=O)[C@H](CO)NC(=O)[C@H](CCCCN)NC(=O)[C@H](C)NC(=O)[C@H](CO)NC(=O)[C@@H]2CSSC[C@H](NC(=O)CN)C(=O)N[C@@H](CSSC[C@@H](C(N)=O)NC1=O)C(=O)N[C@@H](CO)C(=O)N[C@@H](Cc1c[nH]cn1)C(=O)N1CCC[C@H]1C(=O)N[C@@H](C(C)C)C(=O)N2`, the “Inhibition” value is listed as “nearly no inhibition” and the pIC50 is below 5.00.
